A short description of this series: Fluorescence emission spectra without and with saturating ligand (wavelength shift, ΔIstd, ΔRmax). As to conditions: for λmax,apo (nm) / λmax,sat (nm): emission maximum; for λmax,apo (nm): absence of ligand; for λmax,sat (nm): saturating ligand (ligand column); for ΔIstd: standard intensity change; for ΔIstd / ΔRmax: unbound vs ligand-saturated; for ΔRmax: standard ratiometric change. The procedure, abridged:
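Emission spectra of bPBP–fluorophore conjugates (50–1000 nM protein, 25 °C, stirred) recorded without and with saturating ligand, using fluorophore-specific excitation. Wavelength shift, ΔIstd (intensity change at the mid-point wavelength) and ΔRmax (maximal ratiometric change over enumerated band pairs, 2 nm steps, 10 nm width) derived.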

B1: Glu/Asp BP E119C Fluorescein (conjugate, UniProt P37902 23-302, looked up, variant E119C)
Glutamate/aspartate import …: DDAAPAAGSTLDKIAKNGVIVVGHRESSVPFSYYDNQQKVVGYSQDYSNAIVEAVKKKLNKPDLQVKLIPITSQNRIPLLQNGTFDFECGSTTNNVCRQKQAAFSDTIFVVGTRLLTKKGGDIKDFANLKDKAVVVTSGTTSEVLLNKLNEEQKMNMRIISAKDHGDSFRTLESGRAVAFMMDDALLAGERAKAKKPDNWEIVGKPQSQEAYGCMLRKDDPQFKKLMDDTIAQVQTSGEAEKWFDKWFKNPIPPKNLNMNFELSDEMKALFKEPNDKALN
modifications: fluorescein conjugate
For B1, the “λmax,apo (nm)” value turned out to be 523, the “λmax,sat (nm)” value stood at 523, the ΔIstd was 0.05 and the ΔRmax stood at 0.09.

B2: Glu/Asp BP F270C JPW4039 (conjugate, UniProt P37902 23-302, looked up, variant F270C)
Glutamate/aspartate import …: DDAAPAAGSTLDKIAKNGVIVVGHRESSVPFSYYDNQQKVVGYSQDYSNAIVEAVKKKLNKPDLQVKLIPITSQNRIPLLQNGTFDFECGSTTNNVERQKQAAFSDTIFVVGTRLLTKKGGDIKDFANLKDKAVVVTSGTTSEVLLNKLNEEQKMNMRIISAKDHGDSFRTLESGRAVAFMMDDALLAGERAKAKKPDNWEIVGKPQSQEAYGCMLRKDDPQFKKLMDDTIAQVQTSGEAEKWFDKWCKNPIPPKNLNMNFELSDEMKALFKEPNDKALN
modifications: JPW4039 label
Regarding B2, the “λmax,apo (nm)” value is recorded as 596, the “λmax,sat (nm)” value was 594, the ΔIstd stood at 0.01 and the ΔRmax stood at 0.11.

B3: Glu/Asp BP F131C Acrylodan (conjugate, UniProt P37902 23-302, looked up, variant F131C)
Glutamate/aspartate import …: DDAAPAAGSTLDKIAKNGVIVVGHRESSVPFSYYDNQQKVVGYSQDYSNAIVEAVKKKLNKPDLQVKLIPITSQNRIPLLQNGTFDFECGSTTNNVERQKQAAFSDTICVVGTRLLTKKGGDIKDFANLKDKAVVVTSGTTSEVLLNKLNEEQKMNMRIISAKDHGDSFRTLESGRAVAFMMDDALLAGERAKAKKPDNWEIVGKPQSQEAYGCMLRKDDPQFKKLMDDTIAQVQTSGEAEKWFDKWFKNPIPPKNLNMNFELSDEMKALFKEPNDKALN
modifications: Acrylodan label
B3: the “λmax,apo (nm)” value came to 487, the “λmax,sat (nm)” value was 492, the ΔIstd amounted to 0.08 and the ΔRmax was determined as 0.84.

B4: Glu/Asp BP F131C JPW4039 (conjugate, UniProt P37902 23-302, looked up, variant F131C)
Glutamate/aspartate import …: DDAAPAAGSTLDKIAKNGVIVVGHRESSVPFSYYDNQQKVVGYSQDYSNAIVEAVKKKLNKPDLQVKLIPITSQNRIPLLQNGTFDFECGSTTNNVERQKQAAFSDTICVVGTRLLTKKGGDIKDFANLKDKAVVVTSGTTSEVLLNKLNEEQKMNMRIISAKDHGDSFRTLESGRAVAFMMDDALLAGERAKAKKPDNWEIVGKPQSQEAYGCMLRKDDPQFKKLMDDTIAQVQTSGEAEKWFDKWFKNPIPPKNLNMNFELSDEMKALFKEPNDKALN
modifications: JPW4039 label
With B4, the “λmax,apo (nm)” value was determined as 593, the “λmax,sat (nm)” value came out at 597, the ΔIstd was found to be 0.15 and the ΔRmax amounted to 0.37.

B5: Glu/Asp BP F131C JPW4045 (conjugate, UniProt P37902 23-302, looked up, variant F131C)
Glutamate/aspartate import …: DDAAPAAGSTLDKIAKNGVIVVGHRESSVPFSYYDNQQKVVGYSQDYSNAIVEAVKKKLNKPDLQVKLIPITSQNRIPLLQNGTFDFECGSTTNNVERQKQAAFSDTICVVGTRLLTKKGGDIKDFANLKDKAVVVTSGTTSEVLLNKLNEEQKMNMRIISAKDHGDSFRTLESGRAVAFMMDDALLAGERAKAKKPDNWEIVGKPQSQEAYGCMLRKDDPQFKKLMDDTIAQVQTSGEAEKWFDKWFKNPIPPKNLNMNFELSDEMKALFKEPNDKALN
modifications: JPW4045 dye label
For the molecule B5, the “λmax,apo (nm)” value turned out to be 649, the “λmax,sat (nm)” value is 642, the ΔIstd is 0.02 and the ΔRmax amounted to 0.48.

B6: Glu/Asp BP F131C NBD (conjugate, UniProt P37902 23-302, looked up, variant F131C)
Glutamate/aspartate import …: DDAAPAAGSTLDKIAKNGVIVVGHRESSVPFSYYDNQQKVVGYSQDYSNAIVEAVKKKLNKPDLQVKLIPITSQNRIPLLQNGTFDFECGSTTNNVERQKQAAFSDTICVVGTRLLTKKGGDIKDFANLKDKAVVVTSGTTSEVLLNKLNEEQKMNMRIISAKDHGDSFRTLESGRAVAFMMDDALLAGERAKAKKPDNWEIVGKPQSQEAYGCMLRKDDPQFKKLMDDTIAQVQTSGEAEKWFDKWFKNPIPPKNLNMNFELSDEMKALFKEPNDKALN
modifications: NBD conjugate
Regarding B6, the “λmax,apo (nm)” value was determined as 539, the “λmax,sat (nm)” value is recorded as 541, the ΔIstd stood at 0.01 and the ΔRmax is given as 0.10.

B7: Glu/Asp BP F270C JPW4042 (conjugate, UniProt P37902 23-302, looked up, variant F270C)
Glutamate/aspartate import …: DDAAPAAGSTLDKIAKNGVIVVGHRESSVPFSYYDNQQKVVGYSQDYSNAIVEAVKKKLNKPDLQVKLIPITSQNRIPLLQNGTFDFECGSTTNNVERQKQAAFSDTIFVVGTRLLTKKGGDIKDFANLKDKAVVVTSGTTSEVLLNKLNEEQKMNMRIISAKDHGDSFRTLESGRAVAFMMDDALLAGERAKAKKPDNWEIVGKPQSQEAYGCMLRKDDPQFKKLMDDTIAQVQTSGEAEKWFDKWCKNPIPPKNLNMNFELSDEMKALFKEPNDKALN
modifications: JPW4042 dye label
Consider B7, for which the “λmax,apo (nm)” value was 640, the “λmax,sat (nm)” value is 645, the ΔIstd is recorded as 0.08 and the ΔRmax is 0.14.

B8: Glu/Asp BP F270C JPW4045 (conjugate, UniProt P37902 23-302, looked up, variant F270C)
Glutamate/aspartate import …: DDAAPAAGSTLDKIAKNGVIVVGHRESSVPFSYYDNQQKVVGYSQDYSNAIVEAVKKKLNKPDLQVKLIPITSQNRIPLLQNGTFDFECGSTTNNVERQKQAAFSDTIFVVGTRLLTKKGGDIKDFANLKDKAVVVTSGTTSEVLLNKLNEEQKMNMRIISAKDHGDSFRTLESGRAVAFMMDDALLAGERAKAKKPDNWEIVGKPQSQEAYGCMLRKDDPQFKKLMDDTIAQVQTSGEAEKWFDKWCKNPIPPKNLNMNFELSDEMKALFKEPNDKALN
modifications: JPW4045 dye conjugate
Take B8: the “λmax,apo (nm)” value is listed as 644, the “λmax,sat (nm)” value was determined as 647, the ΔIstd was determined as 0.07 and the ΔRmax is reported as 0.69.

B9: Glu/Asp BP F131C JPW4042 (conjugate, UniProt P37902 23-302, looked up, variant F131C)
Glutamate/aspartate import …: DDAAPAAGSTLDKIAKNGVIVVGHRESSVPFSYYDNQQKVVGYSQDYSNAIVEAVKKKLNKPDLQVKLIPITSQNRIPLLQNGTFDFECGSTTNNVERQKQAAFSDTICVVGTRLLTKKGGDIKDFANLKDKAVVVTSGTTSEVLLNKLNEEQKMNMRIISAKDHGDSFRTLESGRAVAFMMDDALLAGERAKAKKPDNWEIVGKPQSQEAYGCMLRKDDPQFKKLMDDTIAQVQTSGEAEKWFDKWFKNPIPPKNLNMNFELSDEMKALFKEPNDKALN
modifications: JPW4042 dye conjugate
As to B9, the “λmax,apo (nm)” value was found to be 650, the “λmax,sat (nm)” value is 643, the ΔIstd was 0.06 and the ΔRmax was 0.68.

B10: Glu/Asp BP E119C NBD (conjugate, UniProt P37902 23-302, looked up, variant E119C)
Glutamate/aspartate import …: DDAAPAAGSTLDKIAKNGVIVVGHRESSVPFSYYDNQQKVVGYSQDYSNAIVEAVKKKLNKPDLQVKLIPITSQNRIPLLQNGTFDFECGSTTNNVCRQKQAAFSDTIFVVGTRLLTKKGGDIKDFANLKDKAVVVTSGTTSEVLLNKLNEEQKMNMRIISAKDHGDSFRTLESGRAVAFMMDDALLAGERAKAKKPDNWEIVGKPQSQEAYGCMLRKDDPQFKKLMDDTIAQVQTSGEAEKWFDKWFKNPIPPKNLNMNFELSDEMKALFKEPNDKALN
modifications: NBD dye conjugate
With B10, the “λmax,apo (nm)” value is recorded as 544, the “λmax,sat (nm)” value was determined as 544, the ΔIstd amounted to 0.05 and the ΔRmax is given as 0.25.

B11: Glu/Asp BP F131C Fluorescein (conjugate, UniProt P37902 23-302, looked up, variant F131C)
Glutamate/aspartate import …: DDAAPAAGSTLDKIAKNGVIVVGHRESSVPFSYYDNQQKVVGYSQDYSNAIVEAVKKKLNKPDLQVKLIPITSQNRIPLLQNGTFDFECGSTTNNVERQKQAAFSDTICVVGTRLLTKKGGDIKDFANLKDKAVVVTSGTTSEVLLNKLNEEQKMNMRIISAKDHGDSFRTLESGRAVAFMMDDALLAGERAKAKKPDNWEIVGKPQSQEAYGCMLRKDDPQFKKLMDDTIAQVQTSGEAEKWFDKWFKNPIPPKNLNMNFELSDEMKALFKEPNDKALN
modifications: fluorescein conjugate
As to B11, the “λmax,apo (nm)” value is 522, the “λmax,sat (nm)” value turned out to be 522, the ΔIstd came to 0.05 and the ΔRmax stood at 0.13.

B12: arabinose BP D257C Fluorescein (conjugate, UniProt P02924 24-329, looked up, variant D257C)
L-arabinose-binding …: ENLKLGFLVKQPEEPWFQTEWKFADKAGKDLGFEVIKIAVPDGEKTLNAIDSLAASGAKGFVICTPDPKLGSAIVAKARGYDMKVIAVDDQFVNAKGKPMDTVPLVMMAATKIGERQGQELYKEMQKRGWDVKESAVMAITANELDTARRRTTGSMDALKAAGFPEKQIYQVPTKSNDIPGAFDAANSMLVQHPEVKHWLIVGMNDSTVLGGVRATEGQGFKAADIIGIGINGVDAVSELSKAQATGFYGSLLPSPCVHGYKSSEMLYNWVAKDVEPPKFTEVTDVVLITRDNFKEELEKKGLGGK
modifications: fluorescein label
As for B12, the “λmax,apo (nm)” value came out at 519, the “λmax,sat (nm)” value was found to be 520, the ΔIstd is 0.03 and the ΔRmax worked out at 1.17.

B13: arabinose BP D257C NBD (conjugate, UniProt P02924 24-329, looked up, variant D257C)
L-arabinose-binding …: ENLKLGFLVKQPEEPWFQTEWKFADKAGKDLGFEVIKIAVPDGEKTLNAIDSLAASGAKGFVICTPDPKLGSAIVAKARGYDMKVIAVDDQFVNAKGKPMDTVPLVMMAATKIGERQGQELYKEMQKRGWDVKESAVMAITANELDTARRRTTGSMDALKAAGFPEKQIYQVPTKSNDIPGAFDAANSMLVQHPEVKHWLIVGMNDSTVLGGVRATEGQGFKAADIIGIGINGVDAVSELSKAQATGFYGSLLPSPCVHGYKSSEMLYNWVAKDVEPPKFTEVTDVVLITRDNFKEELEKKGLGGK
modifications: NBD label
In the case of B13, the “λmax,apo (nm)” value is 538, the “λmax,sat (nm)” value was 544, the ΔIstd was determined as 0.22 and the ΔRmax was determined as 1.15.

For the origin of these results see patent publication US9625458B2, “Biosensor” (priority 2002, dated 2017).
